Pooled drug test results. Numbers come from NIAID ChemDB, via PubChem.

Shared fields: growth or infection tests; agent: Herpes simplex virus 1; measure: EC50

Lines come from different laboratories, so protocols vary.

NC(=O)c1ncn([C@@H]2O[C@H](CO)[C@@H](O)[C@H]2O)n1 ; method: plaque count ; value: 25 µM
C=C1CCC23C[C@H]1C[C@@H]2CC[C@H]1[C@](C)(CO)[C@H](O)CC[C@@]13C ; method: plaque count ; value: >500 µM
Nc1ncnc2c1ncn2C[C@@H](CO)OCP(=O)(O)O ; strain: B2006 (TK-) ; method: cytopathic effect ; value: 0.4 µg/mL
Nc1nc(N)c2ncn([C@@H]3S[C@H](CO)[C@H](O)[C@@H]3F)c2n1 ; value: 0.0057 µg/mL
O=C(O)CP(=O)(O)O ; method: plaque count ; value: 20 µM
C[C@H](Cc1ccc2c(c1)OCO2)[C@H](C)Cc1ccc2c(c1)OCO2 ; strain: 1 ; value: 68.71 µg/mL
Nc1nc2c(ncn2C=C2CC2CO)c(=O)[nH]1 ; strain: OST (TK-) ; value: 13 µg/mL
COC[C@H](Cc1ccc2c(c1)OCO2)[C@@H](COC)Cc1ccc2c(c1)OCO2 ; strain: 1 ; value: 143.1 µg/mL
C[C@@]1(CO)[C@H](O)CC[C@@]2(C)[C@H]1CC[C@H]1C[C@@H]3C[C@@]12CC[C@]31CO1 ; method: plaque count ; value: 1.3 µM
O=C(O)P(=O)(O)O ; strain: B2006 (TK-) ; method: cytopathic effect ; value: 28 µg/mL
O=C(NS(=O)(=O)OC[C@H]1O[C@@H](n2ccc(=O)[nH]c2=O)[C@H](O)[C@@H]1O)O[C@H]1O[C@H](COCc2ccccc2)[C@@H](OCc2ccccc2)[C@H](OCc2ccccc2)[C@H]1OCc1ccccc1 ; method: cytopathic effect ; value: 90 µM
C[C@@]1(CO)[C@H](O)CC[C@@]2(C)[C@H]1CC[C@H]1C[C@@H]3CC12CC=C3CO ; method: plaque count ; value: >500 µM
Nc1ncnc2c1ncn2C[C@@H](CO)OCP(=O)(O)O ; strain: KOS ; method: cytopathic effect ; value: 6.6 µM
CCCCC(=O)SCCOP(=O)(OCCOCn1cnc2c(=O)[nH]c(N)cc21)OCCSC(=O)CCCC ; value: 10 µM
Nc1nc2c(ncn2[C@H]2C=C[C@@H](CO)CC2)c(=O)[nH]1 ; method: plaque count ; value: 0.1–1 µM
O=C(O)C(Br)P(=O)(O)O ; strain: F ; method: plaque count ; value: 280 µM
Nc1cc(OCCOCP(=O)(O)O)nc(N)n1 ; strain: KOS ; method: cytopathic effect ; value: 15 µM
Nc1nc2c(ncn2[C@@H]2C=C[C@H](CO)CC2)c(=O)[nH]1 ; method: plaque count ; value: 0.01–0.1 µM
CC(=O)O[C@H]1C[C@H](n2cc(C)c(=O)[nH]c2=O)O[C@@H]1COS(=O)(=O)NC(=O)O[C@H]1O[C@H](COC(=O)c2ccccc2)[C@@H](OC(=O)c2ccccc2)[C@H](OC(=O)c2ccccc2)[C@H]1OC(=O)c1ccccc1 ; method: cytopathic effect ; value: 70 µM
Nc1ncnc2c1ncn2[C@H]1C[C@H](O)[C@@H](COP([O-])(=S)O[C@H]2C[C@H](n3ccc(=O)[nH]c3=O)O[C@@H]2CO)O1 ; strain: KOS ; value: >20 µM
O=C(O)CP(=O)(O)O ; strain: F ; method: plaque count ; value: 190 µM
C[C@H](Cn1cnc2c(N)ncnc21)OCP(=O)(O)O ; strain: KOS ; method: cytopathic effect ; value: >350 µM
O=C(O)C(Cl)(Br)P(=O)(O)O ; strain: F ; method: plaque count ; value: 790 µM
COC(=O)OP(=O)(CO[C@H](CO)Cn1cnc(N)nc1=O)OC(=O)OC ; strain: KOS ACV ; method: cytopathic effect ; value: 0.1 µg/mL

The last 3 rows once more:

structure	strain	method	value
C[C@H](Cn1cnc2c(N)ncnc21)OCP(=O)(O)O	KOS	cytopathic effect	>350 µM
O=C(O)C(Cl)(Br)P(=O)(O)O	F	plaque count	790 µM
COC(=O)OP(=O)(CO[C@H](CO)Cn1cnc(N)nc1=O)OC(=O)OC	KOS ACV	cytopathic effect	0.1 µg/mL

a–b is a range or a potency band. ECn: concentration that inhibits the pathogen or its effect by n%.